How the values were obtained:
[1] = test system: Coxsackie B3 virus (strain Nancy); test: Anti-coxsackie virus assay, cytopathic effect in Vero cells (MTS); format: cell-based; conditions: Table 13; SI: IC50/EC50
Description: (§1) Madin-Darbey Bovine Kidney (MDBK) cells were maintained in Dulbecco's modified Eagle medium (DMEM) supplemented with BVDV-free 5% fetal calf serum (DMEME-FCS) at 37° C. in a humidified, 5% CO2 atmosphere. BVDV-1 (strain PE515) was used to assess the antiviral activity in MDBK cells. Vero cells were maintained in the same way as MDBK cells. Vero cells were infected with Coxsackie B3 virus (strain Nancy).
Ninety-six-well cell culture plates were seeded with Vero cells in DMEM medium containing 10 fetal calf serum (FCS) so that cells reached confluency 24-48 hr later. Medium was then removed and serial 5-fold dilutions of the test compounds were added in a total volume of 100 ul, after which the virus inoculum (100 μl) was added to each well. […] Uninfected cells and cells receiving virus without compound were included in each asay plate. After 5 days, the medium was removed and 90 μl of DMEM-FCS and 10 μl of MTS/PMS solution (Promega) was added to each well. Following a 2 hr incubation period at 37° C., the optical density of the wells was read at 498 nm in a microplate reader. The 50% effective concentration (EC50) value was defined as the concentration of compound that protects 50% of the cell monolayer from virus-induced cytopathic effect.

[2] = test system: BVDV-1 (strain PE515); test: Anti-BVDV assay, virus-induced cytopathic effect in MDBK cells (MTS); format: cell-based, Bovine Viral Diarrhea Virus
Description: as §1
Ninety-six-well cell culture plates were seeded with MDBK cells in DMEM-FCS so that cells reached 24 hr later confluency. Then medium was removed and serial 5-fold dilutions of the test compounds were added in a total volume of 100 ul, after which the virus inoculum (100 ul) was added to each well. […] Uninfected cells and cells receiving virus without compound were included in each assay plate. After 5 days, medium was removed and 90 μl of DMEM-FCS and 10 ul of MTS/PMS solution (Promega) was added to each well. Following a 2 hr incubation period at 37° C. the optical density of the wells was read at 498 nm in a microplate reader.

[3] = test system: HCV replicon in Huh-5-2 cells; test: Anti-HCV replicon assay, luciferase activity in Huh-5-2 cells; format: cell-based, Hepatitis C Virus; conditions: Table 11; HCV-Huh-5-2 replicon cells; ratio CC50 / EC50
Description: Cells were seeded at a density of 7000 cells per well in 96 well View Plate™ (Packard) in medium containing the same components as described above, except for G418. Cells were allowed to adhere and proliferate for 24 hr. At that time, culture medium was removed and serial dilutions of the test compounds were added in culture medium lacking G418. Interferon alfa 2a (500 IU) was included as a positive control. Plates were further incubated at 37° C. and 5% CO2 for 72 hours. Replication of the HCV replicon in Huh-5 cells results in luciferase activity in the cells. Luciferase activity is measured by adding 50 μl of 1× Glo-lysis buffer (Promega) for 15 minutes followed by 50 ul of the Steady-Glo Luciferase assay reagent (Promega). Luciferase activity is measured with a luminometer and the signal in each individual well is expressed as a percentage of the untreated cultures. […] Instead the density of the culture is measured by means of the MTS method (Promega).

[4] = Table 9, SI: IC50/EC50 (MDBK growth / anti-BVDV)

SMILES | SI [1] | SI [2, 4] | SI [3] | SI ([2]; Table 10, SI: MTC/EC50)
Fc1cccc(F)c1-c1nc2ccn(Cc3ccc(Cl)c(Cl)c3)cc-2n1 [GPC-10, 5-[(3,4-Dichlorophenyl)methyl]-2-(2,6-difluorophenyl)-5H-imidazo[4,5-c]pyridine] | 32.59 | 62.5 |  | 
Fc1cccc(-c2nc3ccn(Cc4ccc(F)cc4F)cc-3n2)c1 [GPC-11, 5-[(2,4-Difluorophenyl)methyl]-2-(3-fluorophenyl)-5H-imidazo[4,5-c]pyridine] | 21.0 | >178 |  | 
Fc1ccc(Cn2ccc3nc(-c4c(F)ccc(F)c4F)nc-3c2)c(F)c1 [GPC-12, 5-[(2,4-Difluorophenyl)methyl]-2-(2,3,6-trifluorophenyl)-5H-imidazo[4,5-c]pyridine] | 27.7 |  |  | 
CC(C)(C)c1ccc(Cn2ccc3nc(-c4ccccc4)nc-3c2)cc1 [GPJN-16, 5-[[4-(1,1-Dimethylethyl)phenyl]methyl]-2-phenyl-5H-imidazo[4,5-c]pyridine] |  | 33 | 3 | 
c1ccc(-c2ccc(Cn3ccc4nc(-c5ccccc5)nc-4c3)cc2)cc1 [GPJN-32, 5-([1,1′-Biphenyl]-4-ylmethyl)-2-phenyl-5H-imidazo[4,5-c]pyridine] | 15.4 | 741 |  | 
Fc1ccc(Cn2ccc3nc(-c4c(F)cccc4F)nc-3c2)c(F)c1 [GPJN-40, 2-(2,6-Difluorophenyl)-5-[(2,4-difluorophenyl)methyl]-5H-imidazo[4,5-c]pyridine] | 11.2 | >400 |  | 
Fc1cccc(-c2nc3ccn(Cc4ccc(Br)cc4)cc-3n2)c1 [GPJN-50, 5-[(4-Bromophenyl)methyl]-2-(3-fluorophenyl)-5H-imidazo[4,5-c]pyridine] | 11.8 | >4760 |  | 
Brc1ccc(Cn2ccc3nc(-c4ccccn4)nc-3c2)cc1 [GPJN-58, 5-[(4-Bromophenyl)methyl]-2-(2-pyridinyl)-5H-imidazo[4,5-c]pyridine] |  | 156 | 15 | 
Cc1cccc(-c2nc3ccn(Cc4ccc(Br)cc4)cc-3n2)c1 [GPJN-60, 5-[(4-Bromophenyl)methyl]-2-(3-methylphenyl)-5H-imidazo[4,5-c]pyridine] | 16.4 | 5133 |  | 
Brc1ccc(Cn2ccc3nc(-c4cccc5ccccc45)nc-3c2)cc1 [GPJN-62, 5-[(4-Bromophenyl)methyl]-2-(1-naphthalenyl)-5H-imidazo[4,5-c]pyridine] |  | 78 | >10 | 
COc1cccc(-c2nc3ccn(Cc4ccc(Br)cc4)cc-3n2)c1 [GPJN-64, 5-[(4-Bromophenyl)methyl]-2-(3-methoxyphenyl)-5H-imidazo[4,5-c]pyridine] | 3.5 | >3846 |  | 
Brc1ccc(Cn2ccc3nc(CSc4ccccc4)nc-3c2)cc1 [GPJN-83, 5-[(4-Bromophenyl)methyl]-2-[(phenylthio)methyl]-5H-imidazo[4,5-c]pyridine] |  |  | >12 | 
FC(F)(F)c1cccc(-c2nc3ccn(Cc4ccc(Br)cc4)cc-3n2)c1 [GPJN-87, 5-[(4-Bromophenyl)methyl]-2-[3-(trifluoromethyl)phenyl]-5H-imidazo[4,5-c]pyridine] |  |  | >32 | 
Clc1c2nc(-c3ccccc3)nc-2ccn1Cc1ccc(Br)cc1 [GPJN-96, 5-[(4-Bromophenyl)methyl]-4-chloro-2-phenyl-5H-imidazo[4,5-c]pyridine] |  |  | 3 | 
Fc1ccccc1-c1nc2ccn(Cc3ccc(Cl)cc3)cc-2n1 [GPJN-112, 5-[(4-Chlorophenyl)methyl]-2-(2-fluorophenyl)-5H-imidazo[4,5-c]pyridine] |  |  | >58 | 4082
Fc1ccccc1-c1nc2ccn(Cc3ccc(I)cc3)cc-2n1 [GPJN-113, 2-(2-Fluorophenyl)-5-[(4-iodophenyl)methyl]-5H-imidazo[4,5-c]pyridine] |  |  | 82 | 6452
Fc1cccc(F)c1Cn1ccc2nc(-c3c(F)cccc3F)nc-2c1 [GPRTI-8, 2-(2,6-Difluorophenyl)-5-[(2,6-difluorophenyl)methyl]-5H-imidazo[4,5-c]pyridine] | 8.48 | >576 |  | 
CCCN(CCC)CCSc1nnc2c(n1)[nH]c1ccccc12 [VP32947, 3-[((2-dipropylamino)ethyl)thio]-5H-1,2,4-triazino[5,6-b]indole, reference compound] |  | >16785 |  | 
